Data on five molecules can be found in patent US20140302123A1, “Products useful for the treatment of malignant neoplasms of the human nervous system” (published 2014).

Assay [1] has as its target T1, PTPN4-PDZ (residues G499-N604) (human), P29074.
T1 chain: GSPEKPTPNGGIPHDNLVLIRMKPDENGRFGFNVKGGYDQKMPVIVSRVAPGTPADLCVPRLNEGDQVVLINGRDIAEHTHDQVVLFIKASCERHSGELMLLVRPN
Nature of the assay: NMR titration.

In assay [2] the target is T1, PTPN4-PDZ (residues G499-N604) (human), …. The experiment in a line: NMR titration, 15N-labeled PTPN4-PDZ with unlabeled peptide.
The target is the same in assay [3]. The experiment in a line: ITC titration. (ITC needs no label: the signal is the heat of the interaction.)
Assay [4] shares this target.

By Kd is commonly meant the equilibrium constant for the complex coming apart. A high value points to lower affinity. With SWESHKSGRETEV (modifications not checked) [Cyto8-RETEV], in assay [1], the fold increase in affinity against Cyto13-att worked out at 160 fold and the fold increase in affinity against GluN2A-16 worked out at 40 fold. In addition, the Kd in assay [2] was found to be 1000 nM. In the case of SWERRETEV (modifications not checked) [… (SEQ ID NO: 5)], in assay [3], the Kd came to 2000 nM. In other words, the single-digit micromolar range.

Consider SWESHKSGGQTRL [Cyto13-vir], for which the fold difference in Kd against Cyto13-att in assay [4] amounted to 4 fold. Molecule SWYERETEV (modifications not checked) [… (SEQ ID NO: 2)] registered a Kd in assay [3] of 1090 nM. In assay [2], SWESHKSGGESDV (modifications not checked) [Cyto9-ESDV] came in with a Kd of 85000 nM.
